Values from PubChem BioAssay AID1259414 (Drosophila RNAi Screening Center, 2018)
The deposit covers about 24,000 reagents; this is a random part of those with a known target gene and a result. In the full data, about 1,210 (5%) were called active. 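Inactive calls also include excluded dsRNAs with several or no targets, genes unexpressed in JW18, and well A1, regardless of score.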 A plus sign joins genes that one reagent is predicted to hit.

Purpose: 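Host factors increasing or decreasing Wolbachia levels in cultured fly cells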 (primary screen)
Cells: Drosophila JW18 cells infected with Wolbachia
Reagents: long dsRNA against Drosophila genes, 0.25 µg dsRNA per well of a 384-well plate
Duration: 5 days
Challenge: cells persistently infected with Wolbachia before knock-down; no added drug
Detection: 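Automated imaging of bacterial rRNA staining divided by host cell count, reported as plate-normalised robust z-score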
Direction: Wolbachia per cell robust z: higher = more Wolbachia per host cell than the plate typical
Call rule: 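Active if absolute robust z reaches 1.5 in two or more of three replicates, leaving out multi- or no-target dsRNAs, genes unexpressed in JW18 and A1 wells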

Gene,dsRNA,"Wolbachia per cell robust z, rep 1","Wolbachia per cell robust z, rep 2","Wolbachia per cell robust z, rep 3",Outcome
CG1273,DRSC08291,-5.75,0.622,-0.307,inactive
snRNA:U2:34ABc,DRSC37898,0.882,0.435,-1.96,inactive
del,DRSC03170,-3.66,-0.548,0.129,inactive
Pfdn6,DRSC10915,-2.12,-0.165,0.427,inactive
CG7156,DRSC16207,-0.297,-0.411,-0.396,inactive
CG7156,DRSC27345,1.63,-0.481,0.653,inactive
CG16837,DRSC04283,-0.234,-1.12,0.396,inactive
CG16837,DRSC26178,-1.52,-0.644,-0.794,inactive
CG31872,DRSC02568,-2.66,-4.78,0.564,inactive
CG31872,DRSC02572,-0.707,-1.19,-0.422,inactive
Hez + CG6709,DRSC10165,-2.27,-0.677,-1.61,inactive
CG31345,DRSC14193,-0.339,0.479,0.313,inactive
CG31345,DRSC14847,-1.05,-0.0857,-0.434,inactive
CG11449,DRSC11662,0.671,-1.62,1.33,inactive
CG11449,DRSC29180,-2.96,0.646,0.000368,inactive
CG13021,DRSC17893,0.0104,-0.282,-0.656,inactive
PH4alphaMP,DRSC17031,-1.69,0.284,-1.01,inactive
CG18324,DRSC06721,-0.747,-2.35,-0.275,inactive
CG18324,DRSC26600,-0.321,-0.114,-0.783,inactive
CG13631,DRSC23168,-0.602,-3.3,-13.7,inactive
CG13631,DRSC28727,0.565,-0.222,-0.0716,inactive
CG8173,DRSC20088,-0.621,-1.17,-0.673,inactive
Cdc5 + Roc1b,DRSC08687,1.04,0.397,0.488,inactive
MsR2,DRSC08336,0.101,-0.0611,-0.0635,inactive
MsR2,DRSC08337,0.547,0.317,-0.0267,inactive
MsR2,DRSC22440,0.652,0.431,-0.125,inactive
MsR2,DRSC26863,-2.11,-0.0482,-2.17,inactive
mus301,DRSC10939,-0.265,0.387,0.645,inactive
